Laboratory results reported in patent US20050271676A1, “Inducing cellular immune responses to human immunodeficiency virus-1 using peptide and nucleic acid compositions” (Epimmune Inc., priority 1993, published 2005).

These sequences were tested against HLA-A*3301 (Homo sapiens, UniProt P04439, A270S/D185E/E176V/E277Q/E87N/F33T/G231S/H175R/I121M/I218V/I322F/K168Q/K210R/L300P/L318F/M331R/P217A/Q86R/Q94H/R138Q/T323A/T345S/T97I/V358M/Y195H) (assay: purified HLA class I binding assay, A*3301). Conditions: HIV A03 supermotif peptides, Table IX; unit not given.

Sequence | A*3301 binding information
TVQCTIIGIK | 0.0017
TVQCTIIGIR | 0.0330
QMVIIQAISPR | 0.1000
QARYLAVER | 0.0320

Same assay, conditions: HIV A03 supermotif peptides; binding value, no unit given

Sequence | A*3301 binding information
KLTEERWNK | 0.0006

Same assay, conditions: Table IX, HIV A03 super motif peptides; binding value, unit not given

Sequence | A*3301 binding information
WMGYELIIPDK | 0.0006
FTTPDKKIIQK | 0.0013
ASCDKCQLK | 0.0009
DIQIKELQK | 0.0018
YLAWVPAIIK | 0.8800
